# Experimental data from the supplement of paper PMC9931576.
# Human monoclonal antibodies against the spike receptor-binding domain (heavy:light variable regions). IC50 against pseudoviruses bearing the spike of naturally observed variants; lower = stronger; >10 µg/ml means not reached at the top dose. No active / inactive call. The stated detection limit is 0.0005 µg/ml; values near or below 0.001 µg/ml lie at the floor of the assay.
# B1: BD57-0302 (protein)
# chain 1: EVQLVQSGAEVKKPGESLKISCKGSGYTFARYWIGWVRQMPGKGLEWMGIIYSGDSDARYSPSFQGQVTISADKSISTAYLQWSSLRASDTAMYYCARTDTTDWFDYWGQGTLVTVSS
# chain 2: EIVLTQSPATLSLSPGERATLSCRASQSVHNFLAWYQQKPGQAPRLLIYDASDRATGIPARFSGSGSGTDFTLTISSLEPEDFAVYYCQQRSNFGGGTKVEIK
# B2: BD57-0293 (protein)
# chain 1: QVQLQESGPGLVKPSQTLSLTCTVSGGSISSGDHYWTWVRQHPGKGLEWLGYIHYTGSPFSNPSLKSRVTISVDTSKNQFSLMLNSVTAADTAIYYCARITLDSNDYVLLDNWGQGTLVTVSS
# chain 2: DIVMTQIPLSSPVTLGQPASISCRSSQSLVHSDGNTYLSWLQQRPGQPPRLLIYKISKRFSGVPDRFSGSGAGTDFTLKISRVEAEDVGVYYCMQVTQFPWTFGQGTKVEIK
# B3: BD57-0314 (protein)
# chain 1: QVQLVQSGAEVKKPGASVMVSCKASGNTLTNYYIHWVRQAPGQGLEWMGIINPSGRSTTYAQKFQDRVTMTGDTSTSTVYMDLSSLRSEDTAVYYCARGGIVPDARTPFDIWGQGTMVTVSS
# chain 2: DIQMTQSPSTLSASVGDRVTITCRASQSISRSLAWYQQKPGEAPKLLIYKASILESGVPSRFSGSGSGAEFTLTISSLQPDDFATYYCQHYNLYSTFGQGTKVEIK
# B4: BD57-0301 (protein)
# chain 1: QLVESGGGVVQPGGSLRLSCAASGFTFNDYAMHWVRQTPGKGLEWLSLISGDGVHTYYADSLKGRFTVSRDNSKDSLYLQMNSLTTEDTALYYCARAYCGDDCYPFRIRPSENAMDVWGQGTTVTVSS
# chain 2: QSVLTQPPSVSGAPGQRVTISCTGSGSNIGAGYDVHWYQQLPGSAPKLLIYANTNRPSGVPDRFSGSKSGTSASLAITGLQAEDEGDYYCQSSDSDLSGGMFGGGTKLTVL
# B5: BD57-0296 (protein)
# chain 1: QVQLVQSGAEVKKPGASVKVSCKVSGDTFRSYAISWVRQAPGRGLEWMGWISAYNGNTNYAQNFQGRLTLTTDTSTSTGYLELRSLRSDDTAVYYCAQPVIATTLDSWGQGTLVTVSS
# chain 2: EIVLTQSPGTLSLSPGERATLSCRASQSVSTYVAWYQQKPGQAPRLLIYGASSRATGIPHRFSGSGSGTDFTLTISRLEPEDFAVYHCQQYGSSLTFGGGTKVEIK
# B6: BD57-0317 (protein)
# chain 1: AQLVESGGGLVQPGGSLRLSCSASGFTFSSYSMYWVRQAPGRELEYVSAISRHGDLTYYSDSVKGRFSISRDNSQNTLDLQMSSLRAEDTALYYCVKDIGKQLSYDVFEIWGRGTMVTVSS
# chain 2: DIQMTHSPSSLSASVGDRVTITCRTSQSISTYLNWYQQKPGSAPKLLIYGASSLRSGVPSRFSGSGSGTEFTLTINTLQPEDFATYYCQQSYISPPTFGQGTKVEIK
# B7: BD-498 (protein)
# chain 1: EVQLVESGGGLVQPGGSLRLSCAASGFTVSRNYMSWVRQAPGKGLEWVSVIYSGGTTHYADSVKGRFTISRHNSKNTLYLQMNSLRAEDTAVYYCARDLVVYGMDVWGQGTTVTVSS
# chain 2: DIQLTQSPSFLSASVGDRVTITCRASQGISSYLAWYQQKPGKAPKLLIYAASTLQSGVPSSFSGSGSGTEFTLTISSLQPEDFATYYCQQLNSYPLTFGGGTKVEIK
# B8: BD57-0295 (protein)
# chain 1: EVQLVQSGAEVKKAGESLKISCKGSGYRFTTYWIAWVRQMPGKGLEWMGIIYPGDSETRYSPSFQGRVTISADKSTNTAYLQWSSLKASDSAMYYCARPNVWFGEFPDWGQGTLVTVSS
# chain 2: QSALTQPPSASGSPGQSVTISCTGTSSDVGGYNHVSWYQQHPGKAPKLIIYEVTERPSGVPDRFSGSKSGNTASLTVSGLQADDEADYYCSSYADRNTLVFGGGTRLAVL
# B9: BD57-0291 (protein)
# chain 1: QVQLVESGGGVVQPGRSLRLSCTASGFTFRSHSMNWVRQAPGKGLEWVAVLSYDGSNKYYGESVKGRFTISRDNSKNALYLQMSSLRVDDTAVYYCARDTSLSDSTSYNSPAFDSWGQGTLVTVSS
# chain 2: SYVLAQPPSVSVAPGKTATITCGGDSIGSKSVHWYQQKPGQAPVLLISYDSDRPSGIPERFSGSNSGNTATLTISRIEAGDEADYYCQVWEIGPVFGTGTTVTVL
# B10: BD57-0310 (protein)
# chain 1: QVQLVESGGGVVQPGRSLRLSCAASGFTFSNYDMHWVRQAPGKGLEWVAVISKDGSKKYNADSVKGRFTISRDNSKNTVYLQMNSLRAEDTGVYYCARDLDPYSYGYFDSWGQGTLVTVSS
# chain 2: EIVMTQSPATLSVSPGERATLSCRASQSVSSNLAWYQQNPGQAPRLLIYGASTRATGIPARFSGSGSGTEFTLTISSLQSEDFVVYYCQQYYYWPSFGPGTKVDIK
# B11: BD57-0319 (protein)
# chain 1: EVQLEESGGALVQPGGSLRLSCAASGFTLSEDDMHWVRQTSGKRLEWVSVIGTAGDTYYADSVKGRFTISRDNVKNSLYLHMNNLRAGDTAVYFCTRGSVTTKGLYHYYYMDVWGKGTTVTVSS
# chain 2: DIQMTQSPSSLSASVGDRVTITCRASQSISTYLNWYQQKPGKAPKLLIYAASSLQSGIPSRFSGSGSGTEFTLTISSLQPEDFATYYCQQSYIMPSWTFGQGTKVEIK
# B12: BD57-0306 (protein)
# chain 1: QVQLQESGPGLVKPSQTLSLTCTVSGGSLISAYYYWSWIRQRPGEGLEWIGYIYNSGNTYYNPSLKSRVTISVDTSTNEISLKLTSVTAADTAVYFCARDFGGNANYFGYWGQGTPVTVSS
# chain 2: DIQMTQSPASLSASVGDRVTITCQASQDIRKSLSWYQQKPGIAPNLLIYDASNLETGVPSRFSGSGSGTEFTFTISSLQPEDIATYYCQQYDNLPITFGQGTRLETK
# B13: BD57-0315 (protein)
# chain 1: EVQLVESGGGLLQPGRSLKLSCAASGFTFDDYTMHWVRQPPGKGLEWVSGISWNGGVIGYADSVRGRFIIARDNAKKSLYLQMRSLRPEDTALYYCAKDTMVREGYNYYYGMDVWGQGTTVTVSS
# chain 2: QSVLTQPPSVSGAPGQRVTISCTGSSSNIGAGYDVHWYQQLPGTAPKLLIYGNNNRPSGVPDRFSGSKSGTSASLAITGLQAEDEADYYCQSYDSSLSGYVFGTGTKVTVL
# Biological target: SARS-CoV-2 Omicron BA.1 spike pseudovirus
# Assay: pseudovirus neutralization IC50; higher = weaker neutralization
# Method: (§1)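 Single-round VSV luciferase pseudovirus mixed with antibody dilutions for 1 h and put on Huh-7 cells for about a day; IC50 from the dose curve.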
row,Binder,pseudovirus neutralization IC50
1,B1,0.586 µg/mL
2,B2,> 10 µg/mL
3,B3,> 10 µg/mL
4,B4,0.249 µg/mL
5,B5,> 10 µg/mL
6,B6,4.48 µg/mL
7,B7,> 10 µg/mL
8,B8,0.426 µg/mL
9,B9,2.31 µg/mL
10,B10,> 10 µg/mL
11,B11,3.39 µg/mL
12,B12,2.28 µg/mL
13,B13,0.0704 µg/mL

# Biological target: SARS-CoV-2 Omicron BA.2 spike pseudovirus
# Assay: as above
# Method: as §1
row,Binder,pseudovirus neutralization IC50
1,B1,0.557 µg/mL
2,B2,0.122 µg/mL
3,B3,> 10 µg/mL
4,B4,> 10 µg/mL
5,B5,0.0437 µg/mL
6,B6,3.34 µg/mL
7,B7,> 10 µg/mL
8,B8,1.37 µg/mL
9,B9,5.78 µg/mL
10,B10,> 10 µg/mL
11,B11,3.82 µg/mL
12,B12,3.32 µg/mL
13,B13,0.0844 µg/mL

# Biological target: SARS-CoV-2 Omicron BA.2.75 spike pseudovirus
# Assay: as above
# Method: as §1
row,Binder,pseudovirus neutralization IC50
1,B1,1.14 µg/mL
2,B2,> 10 µg/mL
3,B3,> 10 µg/mL
4,B4,4.48 µg/mL
5,B5,> 10 µg/mL
6,B6,2.72 µg/mL
7,B7,> 10 µg/mL
8,B8,1.34 µg/mL
9,B9,6.18 µg/mL
10,B10,> 10 µg/mL
11,B11,3.23 µg/mL
12,B12,2.63 µg/mL
13,B13,0.0617 µg/mL

# Biological target: SARS-CoV-2 Omicron BA.5 spike pseudovirus
# Assay: as above
# Method: as §1
row,Binder,pseudovirus neutralization IC50
1,B1,1.18 µg/mL
2,B2,0.0624 µg/mL
3,B3,> 10 µg/mL
4,B4,5.07 µg/mL
5,B5,0.0265 µg/mL
6,B6,2.68 µg/mL
7,B7,> 10 µg/mL
8,B8,0.735 µg/mL
9,B9,3.19 µg/mL
10,B10,> 10 µg/mL
11,B11,3.08 µg/mL
12,B12,7.47 µg/mL
13,B13,0.433 µg/mL

# Biological target: SARS-CoV-2 Omicron BQ.1.1 spike pseudovirus
# Assay: as above
# Method: as §1
row,Binder,pseudovirus neutralization IC50
1,B1,2.29 µg/mL
2,B2,> 10 µg/mL
3,B3,> 10 µg/mL
4,B4,> 10 µg/mL
5,B5,> 10 µg/mL
6,B6,3.81 µg/mL
7,B7,> 10 µg/mL
8,B8,1.2 µg/mL
9,B9,> 10 µg/mL
10,B10,> 10 µg/mL
11,B11,2.44 µg/mL
12,B12,5.06 µg/mL
13,B13,> 10 µg/mL

# Biological target: SARS-CoV-2 Omicron XBB spike pseudovirus
# Assay: as above
# Method: as §1
row,Binder,pseudovirus neutralization IC50
1,B1,2.01 µg/mL
2,B2,> 10 µg/mL
3,B3,> 10 µg/mL
4,B4,> 10 µg/mL
5,B5,> 10 µg/mL
6,B6,2.31 µg/mL
7,B7,> 10 µg/mL
8,B8,1.02 µg/mL
9,B9,2.82 µg/mL
10,B10,> 10 µg/mL
11,B11,4.98 µg/mL
12,B12,4.2 µg/mL
13,B13,> 10 µg/mL

# Biological target: SARS-CoV-2 early D614G spike pseudovirus
# Assay: as above
# Method: as §1
row,Binder,pseudovirus neutralization IC50
1,B1,1.54 µg/mL
2,B2,0.00127 µg/mL
3,B3,> 10 µg/mL
4,B4,0.0715 µg/mL
5,B5,0.00141 µg/mL
6,B6,> 10 µg/mL
7,B7,0.0626 µg/mL
8,B8,1.31 µg/mL
9,B9,> 10 µg/mL
10,B10,> 10 µg/mL
11,B11,8.68 µg/mL
12,B12,> 10 µg/mL
13,B13,0.0211 µg/mL
